Anti-infective test results gathered from many reports (values: NIAID ChemDB through PubChem).

All rows: cytotoxicity tests; cell line: MT-4; measure: CC50

Blank or dashed fields: not listed here.

FC(F)(F)c1ccnc2c1NC(=NC1CC1)c1cccnc1N2C1CC1 ; result: >200 µM
COP(=O)(O)C[C@H](NP(=O)(O)OC[C@@H]1C=C[C@H](n2cc(C)c(=O)[nH]c2=O)O1)C(=O)O ; read by: MTT ; result: 146 µM
Cc1cn([C@H]2C[C@H](N=[N+]=[N-])[C@@H](COP(=O)(Oc3ccccc3)C(O)c3cccnc3)O2)c(=O)[nH]c1=O ; read by: MTT ; result: >100 µM
CC(C)=CCc1c(O)ccc(C(=O)/C=C/c2ccc(O)cc2)c1O ; result: 13 µg/mL
O=c1ccccc(-c2cncnc2)c1O ; read by: MTT ; result: 29 µM
CCOC(=O)c1cn(C)cc1S(=O)(=O)c1ccccc1 ; read by: MTT ; result: >200 µM
CN(C)C(=O)c1cnnn1[C@@H]1O[C@H](CO[Si](C)(C)C(C)(C)C)C2(OS(=O)(=O)C=C2N)[C@H]1O[Si](C)(C)C(C)(C)C ; result: 20 µM
CC(C)c1c(COC(N)=O)cn(Cc2ccncc2)c1Sc1ccccc1 ; result: 127 µM
O=C1Nc2cccnc2N(C2CC2)c2ncccc21 ; result: 1000 µM
Cc1cn([C@H]2C=C[C@@H](COP(=O)(O)N[C@@H](CC(=O)O)C(=O)O)O2)c(=O)[nH]c1=O ; read by: MTT ; result: 169.7 µM
CCNC(=O)c1cnnn1C1OC(CO[Si](C)(C)C(C)(C)C)C2(OS(=O)(=O)C=C2N)C1O[Si](C)(C)C(C)(C)C ; result: ≥250 µM
CC(C)N1C(=O)c2cccn2-c2ccc(Cl)cc2S1(=O)=O ; result: 29 µM
NC(N)=NCCC[C@H](NC(=O)[C@@H]1CCCN1C(=O)[C@@H](Cc1ccc(O)cc1)NC(=O)[C@H](Cc1ccc2ccccc2c1)NC(=O)[C@H](CCCN=C(N)N)NC(=O)[C@@H](N)CCCN=C(N)N)C(=O)O ; read by: MTT ; result: >100 µM
O=C1C(=Cc2ccc(Cl)c(Cl)c2)CCCC1=Cc1ccc(Cl)c(Cl)c1 ; read by: MTT ; result: 120 µM
NC(N)=NCCC[C@H](NC(=O)[C@@H](Cc1ccc(O)cc1)NC(=O)[C@H](Cc1ccc2ccccc2c1)NC(=O)[C@H](CCCN=C(N)N)NC(=O)[C@@H](N)CCCN=C(N)N)C(=O)O ; read by: MTT ; result: >100 µM
C=CCN1C(=O)c2cccn2-c2ccc(Cl)cc2S1(=O)=O ; result: >200 µM
N#Cc1ccc(Nc2nccc(C(O)c3ccc4ccccc4c3)n2)cc1 ; read by: MTT ; result: 35.5 µM
O=C1/C(=C/c2cc(O)c(O)c(O)c2)CCC/C1=C\c1cc(O)c(O)c(O)c1 ; read by: MTT ; result: 50 µM
O=c1c(O)c(-c2ccc(O)c(O)c2)oc2cc(O)cc(O)c12 ; result: 54 µg/mL
CC(C)(C)OC(=O)N[C@@H](Cc1ccccc1)[C@@H](O)C[C@@H](Cc1ccc(OCP(=O)(OCc2ccccc2)OCc2ccccc2)cc1)C(=O)N[C@H]1c2ccccc2C[C@H]1O ; result: 200 µM
Cc1cn([C@H]2C=C[C@@H](CO)O2)c(=O)[nH]c1=O ; read by: MTT ; result: 146 µM
CC(C)=CCc1c(O)cc(O)c2c1CCc1cc(O)c(O)cc1-2 ; result: 10 µg/mL
CCOC(=O)c1cn(Cc2ccncc2)c(Sc2cc(Cl)cc(Cl)c2)c1C(C)C ; result: 41 µM
C=C1OC(C(=O)O)C(/C(=C/C(=O)O)C(=O)OC2C3COC(=O)c4cc(O)c(O)c(O)c4-c4c(cc(O)c(O)c4O)C(=O)OC2C(O)C(OC(=O)c2cc(O)c(O)c(O)c2)O3)c2c1cc(O)c(O)c2O ; result: 17 µM
O=C1NS(=O)(=O)c2cc(Cl)ccc2-n2cccc21 ; result: ≥200 µM
CCN1C(=O)c2cn(C)cc2S(=O)(=O)c2cc(Cl)ccc21 ; read by: MTT ; result: >200 µM
CCN1C(=O)C(C)N(CC=C(C)C)S(=O)(=O)c2cc(Cl)ccc21 ; result: 62 µM
CC(C)NC(=O)c1cnnn1C1OC(CO[Si](C)(C)C(C)(C)C)C2(OS(=O)(=O)C=C2N)C1O[Si](C)(C)C(C)(C)C ; result: >250 µM
O=C1c2cccn2-c2ccc(Cl)cc2S(=O)(=O)N1C1CCC1 ; result: >200 µM
Cc1ccc(C(O)P(=O)(OC[C@H]2O[C@@H](n3cc(C)c(=O)[nH]c3=O)C[C@@H]2N=[N+]=[N-])Oc2ccccc2)cc1 ; read by: MTT ; result: 42 µM
O=C1/C(=C/c2cc(O)c(O)c(O)c2)CN(Cc2ccccc2)C/C1=C\c1cc(O)c(O)c(O)c1 ; read by: MTT ; result: 117 µM
CC1(C)OC2=C(CC3C=C(c4cc(O)cc(O)c4)OC3=C2)CC1O ; result: 12 µg/mL
CCN1C(=S)c2cn(C)cc2S(=O)(=O)c2cc(Cl)ccc21 ; read by: MTT ; result: >200 µM
Cc1cn([C@H]2C[C@H](N=[N+]=[N-])[C@@H](COP(=O)(O)C(O)c3cccnc3)O2)c(=O)[nH]c1=O ; read by: MTT ; result: >100 µM
Nc1ccn([C@H]2CC[C@@H](CO)O2)c(=O)n1 ; read by: MTT ; result: 120 µM
Cc1cc(C(O)c2ccc3ccccc3c2)nc(Nc2ccc(C#N)cc2)n1 ; read by: MTT ; result: 31.2 µM
CC(C)(C)OC(=O)N[C@@H](Cc1ccccc1)[C@@H](O)C[C@@H](Cc1ccc(OCC(=O)O)cc1)C(=O)N[C@H]1c2ccccc2C[C@H]1O ; result: >200 µM
Cc1cn([C@@H]2O[C@H](CO[Si](C)(C)C(C)(C)C)[C@@]3(OS(=O)(=O)C=C3N)[C@H]2O[Si](C)(C)C(C)(C)C)c(=O)[nH]c1=O ; result: 14 µM
CN1C/C(=C\c2ccc(O)c([N+](=O)[O-])c2)C(=O)/C(=C/c2ccc(O)c([N+](=O)[O-])c2)C1 ; read by: MTT ; result: 25 µM
CC(C)c1c(CO)cn(Cc2ccncc2)c1S(=O)(=O)c1ccccc1 ; result: ≥200 µM
Cc1cn([C@H]2C[C@H](N=[N+]=[N-])[C@@H](COP(=O)(Oc3ccccc3)C(O)c3ccccc3)O2)c(=O)[nH]c1=O ; read by: MTT ; result: 49 µM
O=C1/C(=C/c2ccc(O)c([N+](=O)[O-])c2)CNC/C1=C\c1ccc(O)c([N+](=O)[O-])c1 ; read by: MTT ; result: 11 µM
Cc1cn([C@H]2C[C@H](N=[N+]=[N-])[C@@H](COP(=O)([O-])OCC[N+](C)(C)C)O2)c(=O)[nH]c1=O ; read by: trypan blue ; result: >231.5 µM
Cc1cn([C@H]2C[C@H](N=[N+]=[N-])[C@@H](COP(=O)(Oc3ccccc3)C(O)c3ccc([N+](=O)[O-])cc3)O2)c(=O)[nH]c1=O ; read by: MTT ; result: 37 µM
NCCCC[C@@H](NC(=O)[C@H](Cc1ccc2ccccc2c1)NC(=O)[C@H](CCCN=C(N)N)NC(=O)[C@@H](N)CCCN=C(N)N)C(=O)N1CCC[C@H]1C(=O)N[C@@H](Cc1ccc(O)cc1)C(=O)N[C@@H](CCCN=C(N)N)C(=O)O ; read by: MTT ; result: >100 µM
CCOC(=O)C(=O)CC(=O)c1cccc(Oc2ccnc(Nc3ccc(C#N)cc3)n2)c1 ; read by: MTT ; result: >14 µM
CC(C)(C)OC(=O)N[C@@H](Cc1ccccc1)[C@@H](O)C[C@@H](Cc1ccc(OCc2nn[nH]n2)cc1)C(=O)N[C@H]1c2ccccc2C[C@H]1O ; result: >200 µM
Cc1cn([C@H]2C[C@H](N=[N+]=[N-])[C@@H](COP(=O)(Oc3ccccc3)C(O)c3ccc(Cl)cc3)O2)c(=O)[nH]c1=O ; read by: MTT ; result: 50 µM
CSCn1cc2c(c1)S(=O)(=O)c1cc(Cl)ccc1NC2=O ; read by: MTT ; result: >200 µM
CC(C)OP(=O)(COc1ccc(C[C@H](C[C@H](O)[C@H](Cc2ccccc2)NC(=O)OC(C)(C)C)C(=O)N[C@H]2c3ccccc3C[C@H]2O)cc1)OC(C)C ; result: 81 µM
CC(C)c1c(COC(N)=O)cn(Cc2ccncc2)c1Sc1cc(Cl)cc(Cl)c1 ; result: >200 µM

Again, the opening 3 rows:

| compound | read by | result |
|---|---|---|
| FC(F)(F)c1ccnc2c1NC(=NC1CC1)c1cccnc1N2C1CC1 |  | >200 µM |
| COP(=O)(O)C[C@H](NP(=O)(O)OC[C@@H]1C=C[C@H](n2cc(C)c(=O)[nH]c2=O)O1)C(=O)O | MTT | 146 µM |
| Cc1cn([C@H]2C[C@H](N=[N+]=[N-])[C@@H](COP(=O)(Oc3ccccc3)C(O)c3cccnc3)O2)c(=O)[nH]c1=O | MTT | >100 µM |

CCn is the concentration with n% toxicity to the cells. Lines come from different laboratories, so protocols vary.